PubChem BioAssay AID1224833 – University of Georgia, 2016
Aim: 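Host factors restraining rotavirus as candidate antiviral genes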 (primary screen). Cell system: monkey MA104 kidney cells. Reagent: siRNA pool against human genes, 50 nM. Time to read-out: 48 h knock-down before infection; read 24 h after infection. Conditions: infection with rotavirus strain RV3 two days after transfection; infectious dose for this stage not given. Detection: 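z-score of rotavirus antigen signal per well, from a fluorescent immunoassay, relative to non-targeting control wells on the same plate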. Direction: z-score vs non-targeting control: higher = more rotavirus replication than with non-targeting control. Call rule: In these data the active calls have z-score vs non-targeting control at about -1 or lower, or at about 1 or higher. Calls: active = z-score beyond 1 either way; inactive = z-score within 1 of zero.
The whole screen tested about 12,000 reagents; shown is a random part of them. Over the whole deposit, about 5,600 (46%) got an active call. 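Active calls cover z-scores past 1 in both directions, so they include lowered as well as raised rotavirus replication.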 No sequences are given here.

gene	z-score vs non-targeting control	outcome
SENP6	0.527	inactive
APOL4	0.89	inactive
NTSR2	0.648	inactive
RARG	-0.587	inactive
MYO1D	-1.91	active
SETDB1	-0.912	inactive
SKOR2	-0.708	inactive
IFNA5	-0.0755	inactive
GALR2	-1.31	active
FFAR2	3	active
ATF1	0.925	inactive
ARHGAP17	0.402	inactive
KRT34	1.51	active
IFT54	-1.08	active
OR6C75	-1.55	active
OR51E1	-1.01	active
CD53	-1.3	active
NOG	-1.16	active
PLXNA2	0.677	inactive
NPTN	-0.505	inactive
ZNF215	-0.0819	inactive
TMPRSS7	-1.24	active
BCORL1	-1.72	active
SPDYE3	-1.06	active
PTCD2	-2.38	active
NYAP1	-0.892	inactive
ELAPOR2	-1	active
IKZF5	-0.228	inactive
SAMD15	-1.69	active
SAMD9	-1.44	active
EIF4B	0.566	inactive
PAX8	-0.817	inactive
ITFG1	1.18	active
ZNF260	1.91	active
ZNF696	-0.544	inactive
GPLD1	0.543	inactive
THSD7B	1.09	active
SEMA4D	-2.23	active
UBQLN3	0.695	inactive
KRT13	-0.0099	inactive
LMF2	-1.25	active
BOLA1	-2.61	active
MTFMT	-1.66	active
SLC27A1	1.18	active
ARHGEF35	-0.508	inactive
SLC25A32	-1.34	active
SERPINF2	-0.379	inactive
NPC1L1	-0.403	inactive
TGFA	-3.03	active
LIPE	0.9	inactive
TRH	-1.67	active
REEP6	-1.79	active
RPL37	0.282	inactive
PADI4	-0.817	inactive

A run of entries taken from the entries so far:
gene	z-score vs non-targeting control	outcome
CD53	-1.3	active
NOG	-1.16	active
PLXNA2	0.677	inactive
NPTN	-0.505	inactive
ZNF215	-0.0819	inactive
TMPRSS7	-1.24	active
BCORL1	-1.72	active
SPDYE3	-1.06	active
PTCD2	-2.38	active
NYAP1	-0.892	inactive
ELAPOR2	-1	active
IKZF5	-0.228	inactive
SAMD15	-1.69	active
SAMD9	-1.44	active
EIF4B	0.566	inactive
PAX8	-0.817	inactive
ITFG1	1.18	active
ZNF260	1.91	active

The results go on:
gene	z-score vs non-targeting control	outcome
HAGH	-1.54	active
KRT25	0.306	inactive
YY2	1.6	active
ITPRIP	-0.715	inactive
ZIM3	-2.11	active
PFDN5	0.625	inactive
ANKRD11	-1.67	active
CYP7B1	-0.71	inactive
COL21A1	-1.75	active
HDAC2	-1.03	active
HYKK	0.62	inactive
ZNF347	1.16	active
GARNL3	-0.564	inactive
F2RL2	-1.68	active
FAM216B	-0.717	inactive
BMS1	-0.643	inactive
KISS1	-5.36	active
DENR	-2.06	active
OR2D3	-1.38	active
SYNGR3	-1.6	active
GIMAP7	0.535	inactive
ABCA4	-1.41	active
CHMP3	-1.54	active
QKI	-1.02	active
MIR1915HG	-2.28	active
H4C2	1.01	active
CETN1	-1.76	active
AURKAIP1	0.996	inactive
ARMC3	-0.114	inactive
HOOK3	-0.0296	inactive
PSG8	-1.04	active
DPH6	-1.36	active
THAP7	-0.816	inactive
OR8K1	-1.12	active
SLC39A1	-1.61	active
CHIT1	0.536	inactive
MAB21L4	-0.744	inactive
ZNF691	2.02	active
DBNDD1	0.476	inactive
LGALS1	-1.69	active
H1-8	-1.13	active
RBM15B	0.332	inactive
SPDYC	2.27	active
VCPKMT	-0.0193	inactive
MAGEF1	-0.559	inactive
C7orf25	-2.32	active
LRPPRC	-1.26	active
MS4A10	-0.45	inactive
GGTLC2	2.71	active
LCNL1	-1.17	active
UPP2	1.16	active
TLE5	0.431	inactive
TSPAN5	-2.47	active
SMARCD2	-0.984	inactive
MRPS7	0.509	inactive
ALDH3B1	-1.92	active
APOC2	-1.79	active
SAMM50	-0.667	inactive
ZBTB7C	-1.17	active
ARL15	0.0746	inactive
NCK1	-0.975	inactive
RRP15	0.414	inactive
SAR1A	0.715	inactive
UGT1A9	-2.23	active
NUF2	0.382	inactive
DDX21	1.32	active
MAGEA10	0.576	inactive
MACO1	0.0353	inactive
SDK1	-1.58	active
KRT6A	-0.0753	inactive
GNG12	0.0757	inactive
SPINT2	1.51	active
RASSF4	-1.85	active
VCAM1	-0.0201	inactive
SPOPL	-1.81	active
F2RL3	0.701	inactive
INTS4	1.39	active
PCDH1	0.242	inactive
SLC6A8	0.787	inactive
ACBD6	-1.64	active
ANXA2R	-1.13	active
PTHLH	0.297	inactive
SELENOO	0.569	inactive
CASKIN2	1.61	active
NELFE	-0.891	inactive
ARGLU1	-0.619	inactive
